Results of unrelated studies side by side (data: NIAID ChemDB).

All rows: toxicity to cultured cells; cells: C8166; read-out: CC50

An empty or dashed field is not shown. CCn is the concentration with n% toxicity to the cells. Conditions beyond the fields shown may differ between rows.

compound,method,value
Cc1ccc(-c2c[nH]c(=S)n2NC(=S)Nc2ccccc2C)cc1,MTT,110 µM
CO[C@H]1/C=C/O[C@@]2(C)Oc3c(C)c(O)c4c(c3C2=O)C(=O)C(SCCOC(=O)CCC(=O)OC[C@H]2O[C@@H](n3cc(C)c(=O)[nH]c3=O)C[C@@H]2N=[N+]=[N-])=C(NC(=O)/C(C)=C\C=C\[C@H](C)[C@@H]2OC(C)(C)O[C@@H]([C@@H](C)[C@H](OC(C)=O)[C@@H]1C)[C@@H]2C)C4=O,-,>30 µM
CC(C)(C)CC(C)(C)c1ccc(OCCOCCOCCOCCOCCOCCOCCOCCOCCOCCO)cc1,-,>10 µg/mL
CCCCCCCCCCCCC(=O)O[C@@H]1[C@@H](C)[C@@]2(O)[C@@H](C=C(CO)C[C@]3(O)C(=O)C(C)=C[C@@H]23)[C@@H]2C(C)(C)[C@]12OC(=O)CCCCCCCCCCCC,MTT,>200 µM
CC1=CCCC2C1(C)CCC(C)[C@@]2(C)CC1=CC(=O)C(NC(Cc2ccccc2)C(=O)O)=CC1=O,-,8 µM
Cc1ccc(NC(=S)Nn2c(-c3ccc(Cl)cc3)c[nH]c2=S)c(C)c1,MTT,25.21 µM
CC(C)=CCOn1c(C=C(C)C)nc2c(C)cccc21,-,50 µM
CCCCCCCCCc1ccc(OCCOCCOCCOCCOCCOCCOCCOCCO)cc1,-,>10 µg/mL
CC(=O)O[C@@H]1[C@@H](C)[C@@]2(O)[C@@H](C=C(CO)C[C@]3(O)C(=O)C(C)=C[C@@H]23)[C@@H]2C(C)(C)[C@]12OC(C)=O,MTT,>200 µM
COc1cc([C@@H]2c3c(cc(OC)c(O)c3OC)C[C@H](CO)[C@H]2CO)cc(OC)c1O,MTT,>200 µM
CCCCOn1c(CCC)nc2c(C)cccc21,-,40 µM
C=C(C)[C@@H]1CC[C@]2(CCO)CC[C@]3(C)C(CCC4[C@@]5(C)CC/C(=C\O)C(C)(C)C5CC[C@]43C)C12,MTT,139 µM
S=C(Nc1ccc(Cl)cc1)Nn1c(-c2ccc(Br)cc2)c[nH]c1=S,MTT,80 µM
Cc1cn([C@H]2C[C@H](N=[N+]=[N-])[C@@H](CO)O2)c(=O)[nH]c1=O,-,>30 µM
Cc1cn([C@H]2C[C@H](N=[N+]=[N-])[C@@H](CO)O2)c(=O)[nH]c1=O,MTT,1291 µM
CCCCCOn1c(CCCC)nc2c(C)cccc21,-,40 µM
CC(C)(C)NC(=O)[C@@H]1CCCCN1C[C@@H](O)[C@H](Cc1ccccc1)NC(=O)[C@H](CC(N)=O)NC(=O)c1ccc2ccccc2n1,-,>100 µM
CCOn1c(C)nc2c(C)cccc21,-,40 µM
CO[C@H]1/C=C/O[C@@]2(C)Oc3c(C)c(O)c4c(c3C2=O)C(=O)C(SCCOC(=O)CCC(=O)OC[C@H]2O[C@@H](n3cc(C)c(=O)[nH]c3=O)CC2O)=C(NC(=O)/C(C)=C\C=C\[C@H](C)[C@H](O)[C@@H](C)[C@@H](O)[C@@H](C)[C@H](OC(C)=O)[C@@H]1C)C4=O,-,>30 µM
Cc1cccc(C)c1OCC(=O)N[C@@H](Cc1ccccc1)[C@H](O)CN1CC[C@@H](SCc2ccncc2)C[C@H]1C(=O)NC(C)(C)C,-,>1 µM
CC1CNC(=O)c2ccccc2SSc2ccccc2C(=O)N1,-,>0.05 µg/mL
CC(C)(C)OC(=O)[C@@H]1CCCN1C[C@@H](O)[C@H](Cc1ccccc1)NC(=O)[C@H](CC(N)=O)NC(=O)c1ccc2ccccc2n1,-,>100 µM
O=C(O)C1(O)C[C@@H](O)C(O)[C@H](O)C1,-,>200 µg/mL
CC(C)=CCC/C(C)=C/CC/C(C)=C/CC/C(C)=C/Cc1cc(O)cc2c1OC(=O)C2=C(C)C,MTT,31.73 µM
O=c1c(O[C@@H]2O[C@H](CO)[C@@H](O)[C@H](O)[C@H]2O)c(-c2ccc(O)cc2)oc2cc(O)cc(O)c12,-,>200 µg/mL
CCN1c2ncc(COc3ccccc3)cc2C(=O)N(C)c2ccc(Cl)nc21,MTT,>60 µM
CCCCCCCCCc1ccc(OCCOCCOCCOCCOCCOCCOCCOCCOCCOCCO)cc1,-,>10 µg/mL
C=CCOn1c(C=C)nc2ccc(C)cc21,-,20 µM
C/C=C/C(=O)O[C@@H]1[C@@H](O)[C@]2(OC(C)=O)[C@H]([C@@H]3C=C(COC(C)=O)C[C@]4(O)C(=O)C(C)=C[C@H]4[C@@]13O)C2(C)C,MTT,>200 µM
CC(C)[C@H](NC(=O)c1ccc2ccccc2n1)C(=O)N[C@@H](Cc1ccccc1)[C@H](O)CN1CC[C@@H](OCc2ccncc2)C[C@H]1C(=O)NC(C)(C)C,-,>1 µM
Cc1cn([C@H]2C[C@H](N=[N+]=[N-])[C@@H](CO)O2)c(=O)[nH]c1=O,MTT,>500 µg/mL
CC1=CCC[C@H]2[C@](C)(Cc3cc(O)ccc3O)[C@@H](C)CC[C@]12C,-,9.2 µM
O=c1[nH]cnc2c1ncn2[C@H]1CC[C@@H](CO)O1,-,>100 µM
Cc1cc(S[C@@H]2CCN(C[C@@H](O)[C@H](Cc3ccccc3)NC(=O)COc3c(C)cccc3C)[C@H](C(=O)NC(C)(C)C)C2)nc(C)n1,-,>1 µM
CC(=O)O[C@@H]1[C@@H](C)[C@@]2(O)[C@@H](C=C(CO)C[C@]3(O)C(=O)C(C)=C[C@@H]23)[C@@H]2C(C)(C)[C@]12OC(=O)CCCCn1ccc(=O)n(CCCCOC(=O)[C@@]2(C)CC[C@]3(C)CC[C@]4(C)C(=CC(=O)[C@@H]5[C@@]6(C)CC[C@H](C)C(C)(C)[C@@H]6CC[C@]54C)[C@@H]3C2)c1=O,MTT,>200 µM
CCCOn1c(CC)nc2c(C)cccc21,-,1002 µM
CCN1c2ncc(COc3ccncc3)cc2C(=O)N(C)c2ccc(Cl)nc21,MTT,>120 µM
CCCC(=O)OCC1=C[C@H]2[C@@H]3C(C)(C)[C@]3(OC(=O)CCC)[C@H](OC(=O)/C=C/c3ccc(OC)c(OC(C)=O)c3)[C@@H](C)[C@]2(O)[C@@H]2C=C(C)C(=O)[C@@]2(O)C1,MTT,>200 µM
CCNC1=CC(=O)C(C[C@]2(C)C(C)CCC3(C)C(C)=CCCC32)=CC1=O,-,18.6 µM
Cc1cccc(C)c1OCC(=O)N[C@@H](Cc1ccccc1)[C@H](O)CN1C[C@H]2CCCC[C@H]2C[C@H]1C(=O)NC(C)(C)C,-,>10 µM
Cc1cn([C@@H]2C[C@@H](N=[N+]=[N-])[C@H](COP(=O)(O)OC[C@H]3O[C@@H](n4cc(C)c(=O)[nH]c4=O)C[C@@H]3N=[N+]=[N-])O2)c(=O)[nH]c1=O,-,1000 µM
OCC1OC(OCCc2ccccc2)C(O)C(O)C1O,-,>250 µg/mL
Nc1nc(Cl)nc2c1ncn2[C@H]1CC[C@@H](CO)O1,-,360 µM
Cc1cn([C@H]2C[C@H](N=[N+]=[N-])[C@@H](COP(=O)(OCc3ccc(OC(=O)C(C)(C)C)cc3)OC[C@H]3CC[C@@H](n4cnc5c(=O)[nH]cnc54)O3)O2)c(=O)[nH]c1=O,-,55 µM
CC1=CCCC2C1(C)CCC(C)[C@@]2(C)CC1=CC(=O)C(N[C@@H]2C(O)O[C@@H](CO)C(O)C2O)=CC1=O,-,7.1 µM
COc1cc(C(c2ccc(O)c(OC)c2)C(C(=O)O)C(CO)CO)ccc1O,-,73.8 µg/mL
CCCCCCCCCC(=O)O[C@@H]1[C@@H](C)[C@@]2(O)[C@@H](C=C(CO)C[C@]3(O)C(=O)C(C)=C[C@@H]23)[C@@H]2C(C)(C)[C@]12OC(=O)CCCCCCCCC,MTT,>200 µM
CSC[C@H](NC(=O)c1ccc2ccccc2n1)C(=O)N[C@@H](Cc1ccccc1)[C@H](O)CN1CCCC[C@H]1C(=O)NC(C)(C)C,-,>10 µM
CC(=O)[C@]12CCC(C)(C)C=C1C1=CCC3[C@@]4(C)CCC(=O)C(C)(C)C4[C@H](O)C[C@@]3(C)[C@]1(C)CC2,MTT,72.8 µM
CCCC(=O)Oc1ccc(COP(=O)(OC[C@H]2CC[C@@H](n3cnc4c(=O)[nH]cnc43)O2)OC[C@H]2O[C@@H](n3cc(C)c(=O)[nH]c3=O)C[C@@H]2N=[N+]=[N-])cc1,-,90 µM
Cc1cccc(C)c1OCC(=O)N[C@@H](Cc1ccccc1)[C@H](O)CN1CC[C@@H](SCc2cccnc2)C[C@H]1C(=O)NC(C)(C)C,-,>1 µM

6 of the rows above, restated:

compound,method,value
CCNC1=CC(=O)C(C[C@]2(C)C(C)CCC3(C)C(C)=CCCC32)=CC1=O,-,18.6 µM
CC1CNC(=O)c2ccccc2SSc2ccccc2C(=O)N1,-,>0.05 µg/mL
CCCCCCCCCCCCC(=O)O[C@@H]1[C@@H](C)[C@@]2(O)[C@@H](C=C(CO)C[C@]3(O)C(=O)C(C)=C[C@@H]23)[C@@H]2C(C)(C)[C@]12OC(=O)CCCCCCCCCCCC,MTT,>200 µM
Cc1cccc(C)c1OCC(=O)N[C@@H](Cc1ccccc1)[C@H](O)CN1CC[C@@H](SCc2ccncc2)C[C@H]1C(=O)NC(C)(C)C,-,>1 µM
Nc1nc(Cl)nc2c1ncn2[C@H]1CC[C@@H](CO)O1,-,360 µM
Cc1ccc(NC(=S)Nn2c(-c3ccc(Cl)cc3)c[nH]c2=S)c(C)c1,MTT,25.21 µM